Results of unrelated studies side by side (data: NIAID ChemDB).

All rows: toxicity to cultured cells; cells: ATH8; measure: CC50

Conditions beyond the fields shown may differ between rows. CCn: concentration that lowers growth or viability of the cells by n%.

{"smiles": "CC(C)[C@H](NC(=O)N(C)Cc1ccccn1)C(=O)N[C@@H](Cc1ccccc1)[C@H](O)[C@H](O)[C@H](Cc1ccccc1)NC(=O)[C@@H](NC(=O)N(C)Cc1ccccn1)C(C)C", "result": ">100 µM"}
{"smiles": "Nc1ccn([C@@H]2O[C@H](CO)C3OC32)c(=O)n1", "result": ">5 µM"}
{"smiles": "Cc1cn([C@@H]2C[C@H](CO)[C@@H](N=[N+]=[N-])C2)c(=O)[nH]c1=O", "result": ">100 µg/mL"}
{"smiles": "Nc1nc2c(ncn2C=C=CCO)c(=O)[nH]1", "result": "~100 µM"}
{"smiles": "CC(C)(C)NC(=O)[C@H]1N(C(=O)[C@@H](O)[C@H](Cc2ccccc2)NC(=O)[C@H](CC(N)=O)NC(=O)COc2cccc3ccccc23)CSC1(C)C", "result": "30 µM"}
{"smiles": "Nc1nc(N)c2ncn([C@@H]3C[C@H](CO)[C@H]3CO)c2n1", "result": ">500 µM"}
{"smiles": "Nc1nc(N)c2ncn([C@@H]3C[C@H](CO)[C@@H](O)C3)c2n1", "result": "32 µg/mL"}
{"smiles": "Nc1ccn(CC#CCO)c(=O)n1", "result": ">100 µM"}
{"smiles": "Nc1ccn([C@H]2CC[C@@H](CO)O2)c(=O)n1", "result": "35 µM"}
{"smiles": "Nc1nc(=O)n(C=C=CCO)cc1F", "result": ">500 µM"}
{"smiles": "Nc1ncnc2c1ncn2[C@@H]1O[C@H](CO)[C@@H](O)[C@@H]1O", "result": "<50 µg/mL"}
{"smiles": "Nc1ncnc2c1ncn2[C@H]1CC[C@@H](CO)O1", "result": ">500 µM"}
{"smiles": "Nc1ncnc2c1ncn2[C@H]1CC[C@@H](CO)O1", "result": ">500 µM"}
{"smiles": "Nc1nc2c(ncn2C/C=C/CO)c(=O)[nH]1", "result": ">200 µM"}
{"smiles": "Cc1cn([C@H]2C[C@H](N=[N+]=[N-])[C@@H](CO)O2)c(=O)[nH]c1=O", "result": ">10 µM"}
{"smiles": "OC[C@H]1O[C@@H](n2cnc3c2NC=NC[C@H]3O)C[C@@H]1O", "result": ">0.02 µM"}
{"smiles": "Nc1ncnc2c1ncn2CCOCP(=O)(O)O", "result": "80 µM"}
{"smiles": "Nc1ccn([C@H]2CC[C@@H](CO)O2)c(=O)n1", "result": ">10 µM"}
{"smiles": "Nc1ncnc2c1ncn2C/C=C\\CO", "result": "~200 µM"}
{"smiles": "CC(C)(C)NC(=O)C1N(C(=O)[C@@H](O)[C@H](Cc2ccccc2)NC(=O)[C@H](CS(C)(=O)=O)NC(=O)COc2cccc3ccccc23)CSC1(C)C", "result": "16 µM"}
{"smiles": "Nc1ncnc2c1ncn2CCOCP(=O)(O)O", "result": "200 µM"}
{"smiles": "Cc1cc(-c2ccc(N=Nc3ccc4c(S(=O)(=O)O)cc(S(=O)(=O)O)c(N)c4c3O)c(C)c2)ccc1N=Nc1ccc2c(S(=O)(=O)O)cc(S(=O)(=O)O)c(N)c2c1O", "result": ">100 µg/mL"}
{"smiles": "Nc1ccn([C@H]2C=C[C@@H](CO)O2)c(=O)n1", "result": "35 µM"}
{"smiles": "O=c1[nH]cnc2c1ncn2[C@@H]1C[C@H](CO)[C@H]1CO", "result": ">500 µM"}
{"smiles": "Nc1nc2c(ncn2C/C=C\\CO)c(=O)[nH]1", "result": "~500 µM"}
{"smiles": "Cc1cn([C@H]2CC[C@@H](CO)O2)c(=O)[nH]c1=O", "result": "2000 µM"}
{"smiles": "Nc1ncnc2c1ncn2[C@H]1C[C@@H](O)[C@@H](CO)O1", "result": ">100 µM"}
{"smiles": "Nc1nc(=O)n([C@H]2CC[C@@H](CO)O2)cc1Br", "result": ">30 µM"}
{"smiles": "Nc1nc2c(nc(Br)n2[C@@H]2C[C@H](CO)[C@H]2CO)c(=O)[nH]1", "result": ">100 µM"}
{"smiles": "Cc1cn([C@H]2CC[C@@H](CO)O2)c(=O)[nH]c1=O", "result": ">1000 µM"}
{"smiles": "Cc1cn([C@H]2C[C@H](OCC(=O)O)[C@@H](CO)O2)c(=O)[nH]c1=O", "result": ">100 µM"}
{"smiles": "CN(C)C=Nc1ccn([C@H]2C[C@H](F)[C@@H](CO)O2)c(=O)n1", "result": ">200 µM"}
{"smiles": "CNc1ncnc2c1ncn2[C@@H]1C[C@H](CO)[C@H]1CO", "result": ">500 µM"}
{"smiles": "O=c1ccn([C@H]2C=C[C@@H](CO)O2)c(=O)[nH]1", "result": ">100 µM"}
{"smiles": "Cc1cn([C@H]2C[C@H](OS(C)(=O)=O)[C@@H](CO)O2)c(=O)[nH]c1=O", "result": ">100 µM"}
{"smiles": "CC(C)(C)NC(=O)[C@@H]1CSCN1C(=O)[C@@H](O)[C@H](Cc1ccccc1)NC(=O)[C@H](CC(N)=O)NC(=O)COc1cccc2ccccc12", "result": ">50 µM"}
{"smiles": "Nc1ccn([C@H]2C[C@@H](O)[C@@H](CO)O2)c(=O)n1", "result": ">100 µM"}
{"smiles": "O=c1ccn([C@@H]2C[C@H](CO)[C@H]2CO)c(=O)[nH]1", "result": ">500 µM"}
{"smiles": "Cc1cn([C@H]2C[C@@H](OS(C)(=O)=O)[C@@H](CO)O2)c(=O)[nH]c1=O", "result": ">100 µM"}
{"smiles": "NC(=O)c1[nH]nc([C@@H]2O[C@H](CO)[C@@H](O)[C@H]2O)c1O", "result": "<100 µg/mL"}
{"smiles": "Nc1ncnc2c1ncn2[C@H]1CC[C@@H](CO)O1", "result": ">1000 µM"}
{"smiles": "CCc1cn([C@H]2C[C@H](N=[N+]=[N-])[C@@H](CO)O2)c(=O)[nH]c1=O", "result": ">100 µM"}
{"smiles": "Cc1cn([C@H]2CC[C@@H](COP(=O)(O)O)O2)c(=O)[nH]c1=O", "result": ">200 µM"}
{"smiles": "Nc1ncnc2c1ncn2[C@H]1CC[C@@H](CO)O1", "result": ">500 µM"}
{"smiles": "O=c1ccn([C@H]2CC[C@@H](CO)O2)c(=O)[nH]1", "result": "1000 µM"}

A second listing of 5 rows from above:

smiles,result
Nc1ncnc2c1ncn2CCOCP(=O)(O)O,80 µM
Nc1ncnc2c1ncn2[C@H]1C[C@@H](O)[C@@H](CO)O1,>100 µM
CC(C)(C)NC(=O)[C@H]1N(C(=O)[C@@H](O)[C@H](Cc2ccccc2)NC(=O)[C@H](CC(N)=O)NC(=O)COc2cccc3ccccc23)CSC1(C)C,30 µM
Nc1nc2c(nc(Br)n2[C@@H]2C[C@H](CO)[C@H]2CO)c(=O)[nH]1,>100 µM
Nc1ccn(CC#CCO)c(=O)n1,>100 µM